For one substance, Kd results are on record in article PMC10026892.

For the assay, the target named is ACE2-Fc (UniProt Q9BYF1). In words: SPR. A general note: In SPR one partner is held on a chip, and binding of the other changes the refractive index at the surface.

As for “B.1.351 S-Trimer protein (prefusion-stabilized SARS-CoV-2 spike ectodomain with T4 fibritin trimerization motif) (from UniProt P0DTC2 12-1208)”, the dissociation constant (Kd) is 447 pM.

Broadly, the Kd is a measure of binding affinity in units of concentration. A low value points to higher affinity.
